# In US11376232B2, “Vidofludimus for use in the treatment or prevention of viral diseases” (Immunic AG, priority 2020, dated 2022):
# Where a name gives a salt, the structure may show the parent alone.
# Test system: SARS-CoV-2 infection (COVID-19)
# Details: human, in vivo
smiles,measurement,value
"COc1cccc(-c2ccc(NC(=O)C3=C(C(=O)O)CCC3)c(F)c2)c1 [IMU-838, 1-cyclopentene-1-carboxylic acid, 2-(((3-fluoro-3′-methoxy(1,1′-biphenyl)-4-yl)amino)carbonyl)-, calcium salt (2:1)]",safety and tolerability,safe and well-tolerated
